In patent US20230174951A1, “PHENOL-RICH GRAPES” (THE STATE OF ISRAEL, MINISTRY OF AGRICULTURE & RURAL …, priority 2020, published 2023):

System: V. vinifera cv. Gamay Red cell culture
Assay: Phe feeding of control, AroG* and AroG* + FLS-22 lines, metabolite levels
Type: cell-based, Vitis vinifera
Details: 5 mM Phe feeding, 9 days, compared to non-fed control, mean ± SE, n = 3; for Metabolite level, AroG* + FLS line: line 22

**Q.** Which results are given for `OC[C@H]1O[C@@H](Oc2cc(O)cc(/C=C\c3ccc(O)cc3)c2)[C@H](O)[C@@H](O)[C@@H]1O` (relative stereo) [cis-Piceid, cis-piceid]?
**A.** Metabolite level, AroG* line: 1.17±0.08 fold change; Metabolite level, Control line: 0.76±0.05 fold change; Metabolite level, AroG* + FLS line: 1.66±0.12 fold change

**Q.** What does the source list for `OC[C@H]1O[C@@H](Oc2cc(O)cc(/C=C/c3ccc(O)cc3)c2)[C@H](O)[C@@H](O)[C@@H]1O` (relative stereo) [t-Piceid, trans-piceid]?
**A.** Metabolite level, AroG* line: 3.06±0.1 fold change; Metabolite level, Control line: 1.39±0.12 fold change; Metabolite level, AroG* + FLS line: 3.66±0.13 fold change

**Q.** Which “Metabolite level, AroG* line” value does the source give for `CC(=O)OC[C@H]1O[C@@H](Oc2cc3c(O)cc(O)cc3[o+]c2-c2ccc(O)c(O)c2)[C@H](O)[C@@H](O)[C@@H]1O` [Cyanidin-3-acet-glu, cyanidin-3 -acetyl-glucoside] here?
**A.** The value was 0.71±0.09 fold change.

**Q.** What about the “Metabolite level, Control line” value of the same molecule?
**A.** Its value is 1.01±0.14 fold change.

**Q.** What about the “Metabolite level, AroG* + FLS line” value of the same molecule?
**A.** Its value is 1.42±0.08 fold change.

**Q.** How did the “Metabolite level, AroG* line” value turn out when `OC[C@H]1O[C@@H](Oc2cc3c(O)cc(O)cc3[o+]c2-c2ccc(O)c(O)c2)[C@H](O)[C@@H](O)[C@@H]1O` [Cyanidin-3-glu, cyanidin-3 -glucoside] was run?
**A.** Its value is 0.92±0.08 fold change.

**Q.** And the “Metabolite level, Control line” value?
**A.** Its value is 1.35±0.17 fold change.

**Q.** What about the “Metabolite level, AroG* + FLS line” value of the same molecule?
**A.** Its value is 1.69±0.24 fold change.

**Q.** How did the “Metabolite level, AroG* line” value turn out when `CC(=O)OC[C@H]1O[C@@H](Oc2cc3c(O)cc(O)cc3[o+]c2-c2cc(O)c(O)c(O)c2)[C@H](O)[C@@H](O)[C@@H]1O` [Delphindin-3-acet-glu, delphindin-3 -acetyl-glucoside] was run?
**A.** Its value is 2.8±0.28 fold change.

**Q.** What about the “Metabolite level, Control line” value of the same molecule?
**A.** Its value is 3.95±0.92 fold change.

**Q.** What about the “Metabolite level, AroG* + FLS line” value of the same molecule?
**A.** The value was 3.43±0.12 fold change.

**Q.** What does the source list for `OC[C@H]1O[C@@H](Oc2cc3c(O)cc(O)cc3[o+]c2-c2cc(O)c(O)c(O)c2)[C@H](O)[C@@H](O)[C@@H]1O` [Delphindin-3-glu, delphindin-3 -glucoside]?
**A.** Metabolite level, AroG* line: 3.07±0.12 fold change; Metabolite level, Control line: 2.72±0.38 fold change; Metabolite level, AroG* + FLS line: 5.7±0.73 fold change

**Q.** For `Oc1cc(O)c2c(c1)O[C@H](c1cc(O)c(O)c(O)c1)[C@H](O)C2` [Epigallocatechin, epigallocatechin], which “Metabolite level, AroG* line” value is on record?
**A.** Its value is 1.15±0.14 fold change.

**Q.** And the “Metabolite level, Control line” value?
**A.** Its value is 1.17±0.16 fold change.

**Q.** What about the “Metabolite level, AroG* + FLS line” value of the same molecule?
**A.** Its value is 1.76±0.34 fold change.

**Q.** `O=c1c(O)c(-c2cc(O)c(O)c(O)c2)oc2cc(O)cc(O)c12` [Myricetin, myricetin] was tested. Which “Metabolite level, AroG* line” value did it give?
**A.** Its value is 1.79±0.27 fold change.

**Q.** And the “Metabolite level, Control line” value?
**A.** The value was 1.2±0.17 fold change.

**Q.** What about the “Metabolite level, AroG* + FLS line” value of the same molecule?
**A.** Its value is 4.38±0.15 fold change.

**Q.** How did the “Metabolite level, AroG* line” value turn out when `COc1cc(-c2[o+]c3cc(O)cc(O)c3cc2OC2O[C@H](COC(=O)C=Cc3ccc(O)cc3)[C@@H](O)[C@H](O)[C@H]2O)cc(O)c1O` (stereo partly drawn) [Petunidin-3 -coum-glu, petunidin-3-coum-glu] was run?
**A.** The value was 2.04±0.32 fold change.

**Q.** And the “Metabolite level, Control line” value?
**A.** Its value is 1.59±0.02 fold change.

**Q.** And the “Metabolite level, AroG* + FLS line” value?
**A.** Its value is 9.64±1.27 fold change.

**Q.** What does the source list for `COc1cc(-c2[o+]c3cc(O)cc(O)c3cc2O[C@@H]2O[C@H](COC(C)=O)[C@@H](O)[C@H](O)[C@H]2O)cc(O)c1O` [Petunidin-3-acet-glu, petunidin-3-acetyl-glucoside]?
**A.** Metabolite level, AroG* line: 2.59±0.44 fold change; Metabolite level, Control line: 1.99±0.37 fold change; Metabolite level, AroG* + FLS line: 5.23±0.57 fold change

**Q.** `COc1cc(-c2[o+]c3cc(O)cc(O)c3cc2O[C@@H]2O[C@H](CO)[C@@H](O)[C@H](O)[C@H]2O)cc(O)c1O` [Petunidin-3-glu, petunidin-3-glucoside] was tested. Which “Metabolite level, AroG* line” value did it give?
**A.** Its value is 2.2±0.22 fold change.

**Q.** What about the “Metabolite level, Control line” value of the same molecule?
**A.** The value was 2.09±0.29 fold change.

**Q.** What about the “Metabolite level, AroG* + FLS line” value of the same molecule?
**A.** Its value is 5.48±0.63 fold change.

**Q.** Which results are given for `N[C@@H](Cc1ccccc1)C(=O)O` [Phe, Phenylalanine]?
**A.** Metabolite level, AroG* line: 3.86±0.58 fold change; Metabolite level, Control line: 2.35±0.36 fold change; Metabolite level, AroG* + FLS line: 3.72±0.06 fold change

**Q.** Which “Metabolite level, AroG* line” value does the source give for `Oc1ccc(C=Cc2cc(O)cc(O)c2)cc1` [Resveratrol, resveratrol] here?
**A.** Its value is 23.46±2.26 fold change.

**Q.** What about the “Metabolite level, Control line” value of the same molecule?
**A.** Its value is 4.76±0.36 fold change.

**Q.** What about the “Metabolite level, AroG* + FLS line” value of the same molecule?
**A.** Its value is 17.45±0.24 fold change.

**Q.** For `O=C(O)/C=C/c1ccc(O)cc1` [p-Coumaric acid, p-coumaric acid], which “Metabolite level, AroG* line” value is on record?
**A.** The value was 1.64±0.21 fold change.

**Q.** And the “Metabolite level, Control line” value?
**A.** The value was 5.23±0.81 fold change.

**Q.** What about the “Metabolite level, AroG* + FLS line” value of the same molecule?
**A.** Its value is 18.31±3.54 fold change.

**Q.** Which “Metabolite level, AroG* line” value does the source give for `Oc1ccc(/C=C/c2cc(O)cc3c2[C@@H](c2cc(O)cc(O)c2)[C@H](c2ccc(O)cc2)O3)cc1` [ε-Viniferin, ε-viniferin] here?
**A.** Its value is 30.79±4.65 fold change.

**Q.** And the “Metabolite level, Control line” value?
**A.** Its value is 4.35±0.13 fold change.

**Q.** And the “Metabolite level, AroG* + FLS line” value?
**A.** Its value is 24.79±3.22 fold change.

**Q.** Which results are given for “cyanidin-3 -coumaroyl-glucoside [Cyanidin-3-coum-glu]”?
**A.** Metabolite level, AroG* line: 0.62±0.1 fold change; Metabolite level, Control line: 1.3±0.15 fold change; Metabolite level, AroG* + FLS line: 2.32±0.38 fold change

**Q.** With “delphindin-3 -coumaroyl-glucoside [Delphindin-3-coum-glu]” as the molecule, how does the “Metabolite level, AroG* line” value read?
**A.** The value was 1.52±0.29 fold change.

**Q.** And the “Metabolite level, Control line” value?
**A.** The value was 2.41±0.36 fold change.

**Q.** And the “Metabolite level, AroG* + FLS line” value?
**A.** The value was 6.55±0.87 fold change.
